# Mutational scan of HIV-1 Vif (LAI) in cells with APOBEC3G

Scanned stretch, residues 12 to 115 of Vif from HIV-1 LAI (a laboratory-adapted subtype B strain):
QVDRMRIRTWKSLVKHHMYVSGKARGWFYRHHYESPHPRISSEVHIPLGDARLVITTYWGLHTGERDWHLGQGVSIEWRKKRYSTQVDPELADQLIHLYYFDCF

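Pooled viruses with one designed change each in Vif went through two 72 h rounds in SupT1 cells expressing APOBEC3G. Frequencies after the second round, in three biological replicates, were compared with the merged pool after the first round. Changes do not touch integrase, since the pol overlap was removed.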

Values are log2 enrichment relative to wild type (0); lower means weaker defence against APOBEC3G and poorer growth.
Each entry names the wild-type residue, its position and the residue put in its place.
This list holds changes to threonine only.
The median of three replicates is given.
Input reads are the counts in the merged round-one pool, before selection.
Not every substitution is listed.
Replicates agree only moderately (rank correlation about 0.4-0.65); scores from under about 50 input reads tend to be too high.
Positive scores are uncertain; some enriched variants did not exclude APOBEC3G in a separate test.

For Q12T (input reads 479) the result was -2.82.
For V13T (input reads 148) the result was -0.52.
For D14T (input reads 548) the result was -0.57.
For R17T (input reads 57) the result was -1.33.
For I18T (input reads 21) the result was 0.54.
For W21T (input reads 229) the result was 1.01.
For K22T (input reads 1031) the result was -3.12.
For L24T (input reads 321) the result was -2.24.
For H27T (input reads 427) the result was -0.79.
For H28T (input reads 67) the result was 0.75.
For M29T (input reads 431) the result was -1.72.
For V31T (input reads 69) the result was 1.68.
For S32T (input reads 385) the result was -3.57.
For G33T (input reads 756) the result was -1.04.
For K34T (input reads 837) the result was -2.02.
For A35T (input reads 892) the result was -2.22.
For R36T (input reads 35) the result was 0.48.
For G37T (input reads 45) the result was 0.59.
For F39T (input reads 2832) the result was -1.04.
For Y40T (input reads 22) the result was -0.90.
For R41T (input reads 48) the result was 1.30.
For H42T (input reads 508) the result was 0.57.
For E45T (input reads 339) the result was -3.42.
For S46T (input reads 980) the result was -2.60.
For P47T (input reads 1416) the result was -1.95.
For H48T (input reads 400) the result was -3.18.
For P49T (input reads 42) the result was 0.70.
For R50T (input reads 47) the result was 3.22.
For I51T (input reads 478) the result was -1.51.
For S53T (input reads 939) the result was -1.03.
For E54T (input reads 401) the result was -0.69.
For V55T (input reads 167) the result was -1.94.
For I57T (input reads 323) the result was -1.93.
For P58T (input reads 94) the result was 0.33.
For G60T (input reads 361) the result was -1.80.
For D61T (input reads 33) the result was 0.81.
For A62T (input reads 530) the result was -0.65.
For V65T (input reads 368) the result was -3.09.
For Y69T (input reads 306) the result was -3.12.
For W70T (input reads 782) the result was -2.08.
For L72T (input reads 371) the result was -1.98.
For G75T (input reads 450) the result was -2.55.
For E76T (input reads 25) the result was 1.85.
For R77T (input reads 491) the result was -2.06.
For W79T (input reads 1352) the result was -2.15.
For H80T (input reads 744) the result was -2.64.
For L81T (input reads 316) the result was -1.86.
For Q83T (input reads 644) the result was -3.22.
For G84T (input reads 25) the result was 0.80.
For V85T (input reads 771) the result was -2.22.
For S86T (input reads 414) the result was -0.32.
For I87T (input reads 974) the result was -0.74.
For E88T (input reads 64) the result was 4.30.
For R90T (input reads 38) the result was 2.33.
For K91T (input reads 351) the result was -3.02.
For S95T (input reads 1138) the result was -0.59.
For Q97T (input reads 16) the result was -1.84.
For V98T (input reads 138) the result was -1.85.
For P100T (input reads 532) the result was -1.03.
For E101T (input reads 356) the result was -3.13.
For Q105T (input reads 264) the result was -3.71.
For L106T (input reads 385) the result was -2.31.
For I107T (input reads 313) the result was 3.33.
For H108T (input reads 31) the result was -2.34.
For F115T (input reads 16) the result was -1.83.

8 of these entries, quoted again:

change	input reads	median score
L106T	385	-2.31
G75T	450	-2.55
S95T	1138	-0.59
Q83T	644	-3.22
R50T	47	3.22
D61T	33	0.81
K34T	837	-2.02
S46T	980	-2.60

Values reported by Langley et al. 2025, preprint (doi:10.1101/2025.10.20.683452).